Compound potency records, mixed from different reports. Data source: NIAID ChemDB in PubChem.

Common to all: growth or infection tests; agent: Candida albicans

ECn: concentration that inhibits the pathogen or its effect by n%. Conditions beyond the fields shown may differ between rows. MIC50, MIC90 and the like: level of inhibition, or share of isolates inhibited. a–b is a range or a potency band. An empty or dashed field is not shown.

SMILES	read by	strain or isolate	conditions	endpoint	result
O=C(Nc1ccc(Br)cc1)c1cccc(C(=O)Nc2ccc(Br)cc2)n1	-	-	-	MIC	75 µg/mL
Cc1c(O)cccc1C(=O)N[C@@H](CSc1ccccc1)[C@H](O)CN1C[C@H]2CCCC[C@H]2C[C@H]1C(=O)NC(C)(C)C	-	I161A	-	MIC	64 µg/mL
C[C@H]1[C@H](O)[C@@H](C)/C=C/C=C/C=C/C=C/C=C/C=C/C=C/[C@H](O[C@@H]2O[C@H](C)[C@@H](O)[C@H](N)[C@@H]2O)C[C@@H]2O[C@](O)(C[C@@H](O)C[C@@H](O)CC[C@H](O)[C@@H](O)C[C@@H](O)CC(=O)O[C@H]1C)C[C@H](O)[C@H]2C(=O)O	broth dilution	MTCC 16	-	MIC100	16 µg/mL
O=C(O)c1cccc(C(=O)Nc2ccccc2)n1	-	-	-	MIC	37.5 µg/mL
CCCCCCCCCCCCCCCC(=O)NC(CCCN)C(=O)NC(CCCN)C(=O)NC(CCCN)C(=O)NC(CCCN)C(N)=O	broth dilution	ATCC 24433	-	MIC	3.1 µg/mL
Clc1nn2cc(-c3ccc(Br)cc3)nc2s1	agar diffusion	-	-	MIC	50 µg/mL
O=C(c1ccc([N+](=O)[O-])cc1)n1c(-c2ccccc2[N+](=O)[O-])nc2ccccc21	-	-	-	MIC	36 µg/mL
Oc1ccc(Cl)c2ccc(Cl)nc12	-	ATCC 60193	-	MIC	25 µg/mL
Cn1c(=O)c(-c2[nH][nH]c(=O)c2C=Nc2ccccc2)c(O)c2ccccc21	-	ATCC 10231	-	MIC	>100 µg/mL
CC1(C)C(O)CC[C@@]2(C)C1CC[C@]1(C)C2[C@H](O)C=C2C3C[C@@](C)(C(=O)O)CC[C@]3(C)CC[C@]21C	absorbance	-	-	MIC	63 µg/mL
CC(=O)NNC(=S)Nn1c(-c2ccccc2)nc2ccccc2c1=O	-	ATCC 753	-	MIC	100 µg/mL
CCCCCCCCCCCCCC(=O)NC(CCCN)C(=O)NC(CCCN)C(=O)NC(CCCN)C(=O)NC(CCCN)C(=O)NC(CCCN)C(N)=O	broth dilution	ATCC 24433	-	MIC	6.25 µg/mL
COc1cc2ccnc3c2c(c1OC(=O)c1ccc(C#N)cc1)N(C)C=C3	-	-	-	EC50	>15 µg/mL
O=C(O)c1ccccc1-c1nc2ccccc2n1C(=O)c1ccc([N+](=O)[O-])cc1	-	-	-	MIC	33 µg/mL
O=C1C(=O)c2c(O)ccc(O)c2C(O)=C1Sc1ncc[nH]1	-	-	-	MIC	>50 µg/mL
Nc1[nH]c(=O)ncc1F	-	58 strains	-	MIC90	0.5 µg/mL
O=C(COc1cccc(F)c1)c1ccccc1	broth dilution	ATCC 10231	48 h	MIC	>125 µg/mL
O=C(c1ccc([N+](=O)[O-])cc1)n1c(-c2ccccc2Cl)nc2ccccc21	-	-	-	MIC	17 µg/mL
COc1cc2ccnc3c2c(c1OC(=O)c1ccc(C(C)(C)C)cc1)N(C)C=C3	-	-	-	MIC	10 µg/mL
C=CCSS(=O)CC=C.OC(Cn1cncn1)(Cn1cncn1)c1ccc(F)cc1F	-	ATCC 14053	-	MIC90	0.25 µg/mL
CO[C@@H](C)[C@H](N)C(=O)NS(=O)(=O)OC[C@H]1O[C@@H](CCn2nnc(-c3ccc(Oc4ccccc4)cc3)n2)[C@H](O)[C@@H]1O	-	ATCC 10231	-	MIC	>500 µg/mL
CCC(=O)NNC(=S)Nn1c(-c2ccccc2)nc2ccccc2c1=O	-	ATCC 753	-	MIC	100 µg/mL
Cn1c(=O)c(-c2[nH][nH]c(=O)c2N=Nc2cccc(Br)c2)c(O)c2ccccc21	-	ATCC 10231	-	MIC	50 µg/mL
C[C@H](N1CCN(c2ccc(-n3cccn3)cc2)C1=O)[C@@](O)(Cn1cncn1)c1ccc(F)cc1F	-	TIMM1756	-	MIC	0.004 µg/mL
Cc1ccc(N=Cc2c(-c3c(O)c4ccccc4n(C)c3=O)[nH][nH]c2=O)cc1	-	ATCC 10231	-	MIC	25 µg/mL
Cc1ccc(-c2cn3nc([N+](=O)[O-])sc3n2)cc1	agar diffusion	-	-	MIC	>75 µg/mL
CN[C@H]1CC[C@@H](c2ccc(Cl)c(Cl)c2)c2ccccc21	broth dilution	SC5314	-	MIC90	32 µg/mL
CCCCCCCCCCCCCCCCCC(=O)NC(CCCN)C(=O)NC(CCCN)C(=O)NC(CCCN)C(=O)NC(CCCN)C(N)=O	broth dilution	ATCC 24433	-	MIC	3.1 µg/mL
CCCSc1ccc2nc(NC(=O)OC)[nH]c2c1	-	R-1590	24 h	MIC	10 µg/mL
Cn1c(=O)c(-c2[nH][nH]c(=O)c2/C=N/c2ccccn2)c(O)c2ccccc21	-	ATCC 10231	-	MIC	50 µg/mL
CC(n1ccn(-c2ccc(-n3cnnn3)cc2)c1=O)C(O)(Cn1cncn1)c1ccc(F)cc1F	-	TA	-	MIC	0.008 µg/mL
O=C(COc1cccc(Cl)c1)c1ccccc1	broth dilution	ATCC 10231	24 h	MIC	>125 µg/mL
CCCCCCCCCCCCCC(=O)NC(CCCN)C(N)=O	broth dilution	ATCC 24433	-	MIC	>100 µg/mL
O/N=C(\COc1ccccc1)c1ccccc1	broth dilution	ATCC 10231	24 h	MIC	>125 µg/mL
O=C(c1ccc([N+](=O)[O-])cc1)n1c(-c2ccc(O)cc2)nc2ccccc21	-	-	-	MIC	35 µg/mL
CC(N1CCN(c2ccc(-n3cncn3)cc2)C1=O)C(O)(Cn1cncn1)c1ccc(F)cc1F	-	TIMM1756	-	MIC	0.002 µg/mL
CCN(CC)C(=O)Oc1c(OC)cc2ccnc3c2c1N(C)C=C3	-	-	-	EC50	>15 µg/mL
COC(=O)CNC1=CC(=O)c2ccccc2C1=O	-	-	-	MIC	50 µg/mL
CC(N1CCN(c2ccc(-n3ccnn3)cc2)C1=O)C(O)(Cn1cncn1)c1ccc(F)cc1F	-	TA	-	MIC	0.008 µg/mL
COc1c(O)c2c(=O)cc(OC)c3c4c(OC)cc(=O)c5c(O)c(OC)c6c(c(c1CC(C)(O)C6C(C)=O)c23)c54	-	-	-	EC50	0.65 µg/mL
O=C(c1ccccc1Br)n1c(-c2ccc(O)cc2)nc2ccccc21	-	-	-	MIC	4 µg/mL
CCCCCCCCCCCCCCCCOP(=O)([O-])OCC[N+](C)(C)C	-	-	-	MFC	4 µg/mL
O=C(O)c1ccc(C[C@H](C(=O)O)[C@@H](O)C(=O)O)cc1	-	ATCC 10231	-	MIC	>4 µg/mL
C=CCSS(=O)CC=C.CC(=O)N1CCN(c2ccc(OC[C@H]3CO[C@](Cn4ccnc4)(c4ccc(Cl)cc4Cl)O3)cc2)CC1	-	ATCC 14053	-	MIC50	0.031 µg/mL
C[C@H]1[C@H](O)[C@@H](C)/C=C/C=C/C=C/C=C/C=C/C=C/C=C/[C@H](O[C@@H]2O[C@H](C)[C@@H](O)[C@H](N)[C@@H]2O)C[C@@H]2O[C@](O)(C[C@@H](O)C[C@@H](O)CC[C@H](O)[C@@H](O)C[C@@H](O)CC(=O)O[C@H]1C)C[C@H](O)[C@H]2C(=O)O	broth dilution	green	-	EC50	1 µM
CCCCCCCCCCCCCCCCCC(=O)NC(CCCN)C(=O)NC(CCCN)C(=O)NC(CCCN)C(N)=O	broth dilution	ATCC 24433	-	MIC	6.25 µg/mL
C=C(C)C(=O)NCCCCC(N)C(=O)NCCCCC(N)C(=O)O	-	-	-	MIC	27 µg/mL
COc1ccc(C2CC(=O)CC(c3ccc(OC)cc3)N2OCCc2nc3ncccc3[nH]2)cc1	-	6 (NCIM-C27)	-	MIC	25 µg/mL
CSCC[C@H]1NC(=O)[C@H]2CCCN2C1=O	broth dilution	MTCC 277	-	MIC100	64 µg/mL
Cc1ccc(-c2cn3nc(Cl)sc3n2)cc1	agar diffusion	-	-	MIC	>75 µg/mL
OC(Cn1cncn1)(Cn1cncn1)c1ccc(F)cc1F	agar	-	-	MIC	25–100 µg/mL
CC1C(=O)CC(c2ccccc2)N(OCCc2nc3ncccc3[nH]2)C1c1ccccc1	-	6 (NCIM-C27)	-	MIC	200 µg/mL
CCOc1ccc2nc3cc(N=C4NC(=O)/C(=C\c5ccc([N+](=O)[O-])cc5)S4)ccc3c(N)c2c1	broth dilution	ATCC 60193	-	MIC	500 µg/mL
Clc1ccc(-c2cn3nc(Cl)sc3n2)cc1	agar diffusion	-	-	MIC	50 µg/mL
COc1ccc(C2CC(=O)C(C)C(c3ccc(OC)cc3)N2OCCc2nc3ncccc3[nH]2)cc1	-	NCIM-C27	-	MIC	25 µg/mL
Cc1ccnc(C(N)=Nc2ccc(-c3ccc(-c4ccc(N=C(N)c5cc(C)ccn5)cc4C)o3)c(C)c2)c1	-	-	-	MFC	10 µg/mL
Cc1ccc(/C=c2\c(=O)[nH][nH]\c2=C2/C(=O)c3ccccc3N(C)C2=O)cc1	-	ATCC 10231	-	MIC	>100 µg/mL
COc1cc2ccnc3c2c(c1OC(=O)c1cccc(F)c1F)N(C)C=C3	-	-	-	EC50	>15 µg/mL
O=C(c1ccc([N+](=O)[O-])cc1)n1c(-c2ccccc2)nc2ccccc21	-	-	-	MIC	9 µg/mL
CC(N1CCN(c2ccc(-n3cnnn3)cc2)C1=O)C(O)(Cn1cncn1)c1ccc(F)cc1F	-	TIMM1850	-	MIC	0.004 µg/mL
OC(Cn1cncn1)(Cn1cncn1)c1ccc(F)cc1F	-	TIMM3164 (azole-resistant)	-	MIC80	1 µg/mL
Cn1c(=O)c(-c2[nH][nH]c(=O)c2N=Nc2ccc(Br)cc2)c(O)c2ccccc21	-	ATCC 10231	-	MIC	>100 µg/mL
C[C@H]1[C@H](O)[C@@H](C)/C=C/C=C/C=C/C=C/C=C/C=C/C=C/[C@H](O[C@@H]2O[C@H](C)[C@@H](O)[C@H](N)[C@@H]2O)C[C@@H]2O[C@](O)(C[C@@H](O)C[C@@H](O)CC[C@H](O)[C@@H](O)C[C@@H](O)CC(=O)O[C@H]1C)C[C@H](O)[C@H]2C(=O)O	-	ATCC64547	-	MIC	1 µg/mL
O=C(c1ccc([N+](=O)[O-])cc1)n1c(-c2ccc([N+](=O)[O-])cc2)nc2ccccc21	-	-	-	MIC	9 µg/mL
COc1cc2ccnc3c2c(c1OC(=O)c1ccc(F)c(F)c1)N(C)C=C3	-	-	-	EC50	>15 µg/mL
COc1ccccc1OC/C(=N/O)c1ccccc1	broth dilution	ATCC 10231	24 h	MIC	125 µg/mL
N[C@H]1CCC[C@H]1C(=O)O	-	IAM4888	-	MIC	10 µg/mL
CCCCc1ccc(C(=O)Oc2c(OC)cc3ccnc4c3c2N(C)C=C4)cc1	-	-	-	EC50	3 µg/mL
CN1C(=O)/C(=c2/[nH][nH]c(=O)/c2=C\c2ccccn2)C(=O)c2ccccc21	-	ATCC 10231	-	MIC	>100 µg/mL
CNC(=S)Nn1c(-c2ccccc2)nc2ccccc2c1=O	-	ATCC 753	-	MIC	50 µg/mL
CCc1ccc(C(=O)Oc2c(OC)cc3ccnc4c3c2N(C)C=C4)cc1	-	-	-	EC50	10 µg/mL
COc1ccc(OC/C(=N/O)c2ccccc2)cc1	broth dilution	ATCC 10231	48 h	MIC	>125 µg/mL
C[C@H]1[C@H](O)[C@@H](C)/C=C/C=C/C=C/C=C/C=C/C=C/C=C/[C@H](O[C@@H]2O[C@H](C)[C@@H](O)[C@H](N)[C@@H]2O)C[C@@H]2O[C@](O)(C[C@@H](O)C[C@@H](O)CC[C@H](O)[C@@H](O)C[C@@H](O)CC(=O)O[C@H]1C)C[C@H](O)[C@H]2C(=O)O	-	ATCC 10231	-	MIC	>100 µg/mL
O=C(CN1CCOCC1)Nc1nc(-c2ccccc2)cc(-c2ccc(F)cc2)n1	-	-	-	MIC	25 µg/mL
CCCCCCCCCCCC(=O)NC(CCCN)C(=O)NC(CCCN)C(N)=O	broth dilution	ATCC 24433	-	MIC	50 µg/mL
CCCCCc1ccc(C(=O)Oc2c(OC)cc3ccnc4c3c2N(C)C=C4)cc1	-	-	-	EC50	4.5 µg/mL
Cc1nc(-c2ccc(-n3cnn(C(C)C(O)(Cn4cncn4)c4ccc(F)cc4F)c3=O)cc2)cs1	-	TA	-	MIC	0.002 µg/mL
O=[N+]([O-])c1nn2cc(-c3ccc(Br)cc3)nc2s1	agar diffusion	-	-	MIC	>75 µg/mL

A second listing of 8 rows from above:

SMILES | read by | strain or isolate | conditions | endpoint | result
O=C(COc1cccc(F)c1)c1ccccc1 | broth dilution | ATCC 10231 | 48 h | MIC | >125 µg/mL
Clc1ccc(-c2cn3nc(Cl)sc3n2)cc1 | agar diffusion | - | - | MIC | 50 µg/mL
CC(N1CCN(c2ccc(-n3cnnn3)cc2)C1=O)C(O)(Cn1cncn1)c1ccc(F)cc1F | - | TIMM1850 | - | MIC | 0.004 µg/mL
C=CCSS(=O)CC=C.CC(=O)N1CCN(c2ccc(OC[C@H]3CO[C@](Cn4ccnc4)(c4ccc(Cl)cc4Cl)O3)cc2)CC1 | - | ATCC 14053 | - | MIC50 | 0.031 µg/mL
OC(Cn1cncn1)(Cn1cncn1)c1ccc(F)cc1F | - | TIMM3164 (azole-resistant) | - | MIC80 | 1 µg/mL
CCCSc1ccc2nc(NC(=O)OC)[nH]c2c1 | - | R-1590 | 24 h | MIC | 10 µg/mL
C[C@H]1[C@H](O)[C@@H](C)/C=C/C=C/C=C/C=C/C=C/C=C/C=C/[C@H](O[C@@H]2O[C@H](C)[C@@H](O)[C@H](N)[C@@H]2O)C[C@@H]2O[C@](O)(C[C@@H](O)C[C@@H](O)CC[C@H](O)[C@@H](O)C[C@@H](O)CC(=O)O[C@H]1C)C[C@H](O)[C@H]2C(=O)O | - | ATCC 10231 | - | MIC | >100 µg/mL
CC1(C)C(O)CC[C@@]2(C)C1CC[C@]1(C)C2[C@H](O)C=C2C3C[C@@](C)(C(=O)O)CC[C@]3(C)CC[C@]21C | absorbance | - | - | MIC | 63 µg/mL